A mixed list of measured activities; the numbers were collected in NIAID ChemDB.

All rows: tests in culture; agent: HIV-1; cells: MT-2; endpoint: EC50

ECn: concentration that inhibits the pathogen or its effect by n%. Lines come from different laboratories, so protocols vary. Blank or dashed fields: not listed here.

N/C(=N/O)c1cccc(CN2C(=O)N(CC3CC3)[C@H](CCc3ccccc3)[C@@H](O)[C@H]2Cc2ccccc2)c1 ; strain: RF ; method: cytopathic effect / MTT ; result: <0.036 µM
Cc1cn([C@H]2C=C[C@@H](CO)O2)c(=O)[nH]c1=O ; strain: LAI ; method: RT activity ; result: 0.4 µM
COC(=O)N[C@H](C(=O)N[C@@H](Cc1ccccc1)[C@@H](O)CN(Cc1ccc(-c2ccccn2)cc1)NC(=O)[C@@H](NC(=O)OC)C(C)(C)C)C(C)(C)C ; strain: IIIB ; mutations: 8374-P47 GS-8374-resistant ; method: virus yield / flow cytometry ; result: 0.0165 µM
N[C@@H](Cc1ccccc1)C(=O)N[C@@H](Cc1ccc(O)cc1)C(=O)O ; strain: IIIB ; method: cytopathic effect / neutral red ; result: 7 µg/mL
Nc1ncnc2c1ncn2[C@@H]1O[C@H](CO)C[C@@H]1F ; strain: IIIB ; method: cytopathic effect / XTT / RT activity ; setting: 5 d ; result: 25 µM
O=C(Nc1ncc[nH]1)c1cccc(CN2C(=O)N(CC3CC3)[C@H](Cc3ccccc3)[C@H](O)[C@@H](O)[C@H]2Cc2ccccc2)c1 ; strain: RF ; result: <0.028 µM
CC(C)(C)NC(=O)[C@@H]1[C@H]2CCCC[C@H]2CN1C(=O)[C@@H](O)[C@H](Cc1ccccc1)NC(=O)[C@H](CC(N)=O)NC(=O)COc1cccc2ccccc12 ; strain: RF ; method: p24 ; result: 0.018 µM
Cc1cn([C@H]2C[C@H](N=[N+]=[N-])[C@@H](CO)O2)c(=O)[nH]c1=O ; strain: IIIB ; mutations: LPV-P31 lopinavir-resistant mutant ; method: ATP ; result: 0.513 µM
CC(C)(C)NC(=O)[C@@H]1C[C@@H]2CCCC[C@@H]2CN1C[C@@H](O)[C@H](Cc1ccccc1)NC(=O)[C@H](CC(N)=O)NC(=O)c1ccc2ccccc2n1 ; strain: LAI Laboratory isolate ; method: cytopathic effect / MTT ; result: 0.023 µM
CC(C)(C)NC(=O)[C@@H]1C[C@@H]2CCCC[C@@H]2CN1C[C@@H](O)[C@H](Cc1ccccc1)NC(=O)[C@H](CC(N)=O)NC(=O)c1ccc2ccccc2n1 ; strain: LAI ; method: p24 ; result: 0.021 µM
CCCCN1C(=O)N(Cc2cccc(C(=O)Nc3ncc[nH]3)c2)[C@H](Cc2ccccc2)[C@H](O)[C@@H](O)[C@H]1Cc1ccccc1 ; strain: RF ; result: <0.018 µM
Nc1nc(Cl)c2ncn([C@H]3CC[C@H](CO)O3)c2n1 ; strain: IIIB ; method: cytopathic effect / MTT ; result: >100 µM
COc1ccc(S(=O)(=O)N(CC(C)C)C[C@@H](O)[C@H](Cc2ccccc2)NC(=O)O[C@H]2CO[C@H]3OCC[C@H]32)cc1 ; strain: LAI Laboratory isolate ; method: cytopathic effect / MTT ; result: 0.0003 µM
O=C(Nc1ncc[nH]1)c1cccc(CN2C(=O)N(Cc3cccc(C(=O)Nc4ncc[nH]4)c3)[C@H](Cc3ccccc3)[C@H](O)[C@@H](O)[C@H]2Cc2ccccc2)c1 ; strain: RF ; method: p24 ; result: <0.0019 µM
CC(C)(C)NC(=O)[C@@H]1CN(Cc2cccnc2)CCN1C[C@@H](O)C[C@@H](Cc1ccccc1)C(=O)N[C@H]1c2ccccc2C[C@H]1O ; strain: RF/41-D2-(PR-V82A) PI-resistant ; mutations: PR-V82A ; method: cytopathic effect ; result: 0.028 µM
Nc1nc(Cl)c2ncn([C@@H]3CC[C@H](CO)O3)c2n1 ; strain: IIIB ; method: cytopathic effect / MTT ; result: >100 µM
COC(=O)N[C@H](C(=O)N[C@@H](Cc1ccccc1)[C@@H](O)CN(Cc1ccc(-c2ccccn2)cc1)NC(=O)[C@@H](NC(=O)OC)C(C)(C)C)C(C)(C)C ; strain: NL4-3 ; mutations: PR-L10I G48V L90M ; result: 0.00095 µM
O=C1N[C@H](CCc2ccccc2)[C@@H](O)[C@@H](Cc2ccccc2)N1Cc1cccc(O)c1 ; strain: RF ; method: cytopathic effect / MTT ; result: <4.8 µM
CC(C)OC(=O)[C@H](C)N[P@](=O)(CO[C@H](C)Cn1cnc2c(N)ncnc21)Oc1ccccc1 ; strain: IIIB ; method: XTT / absorbance ; result: 0.005 µM
CC(C)[C@H](NC(=O)c1ccc2ccccc2n1)C(=O)N[C@@H](Cc1ccccc1)[C@H](O)C(=O)N1CCC[C@H]1C(=O)NC(C)(C)C ; strain: RF ; method: p24 ; result: 0.5 µM
Nc1nc2c(ncn2[C@H]2CC[C@@H](CO)O2)c(=O)[nH]1 ; strain: IIIB ; method: cytopathic effect / trypan blue ; result: >50 µM
Cc1c(O)cccc1C(=O)N[C@@H](CSc1ccccc1)[C@H](O)CN1C[C@H]2CCCC[C@H]2C[C@H]1C(=O)NC(C)(C)C ; strain: NL4-3 Laboratory clone ; method: cytopathic effect / MTT ; result: 0.023 µM
CC(C)[C@H](NC(=O)c1ccc2ccccc2n1)C(=O)N[C@@H](Cc1ccccc1)[C@H](O)C(=O)N1[C@H](C(=O)NC(C)(C)C)C[C@@H]2CCCC[C@@H]21 ; strain: RF ; method: p24 ; result: 0.057 µM
Nc1ncnc2c1ncn2[C@@H]1CC[C@H](CO)O1 ; strain: IIIB ; method: cytopathic effect / MTT ; result: >100 µM
Nc1cccc(CN2C(=O)N[C@H](CCc3ccccc3)[C@@H](O)[C@H]2Cc2ccccc2)c1 ; strain: RF ; method: cytopathic effect / MTT ; result: <4.33 µM
CC(C)(C)NC(=O)[C@@H]1C[C@@H]2CCCC[C@@H]2CN1C[C@@H](O)[C@H](Cc1ccccc1)NC(=O)[C@H](CC(N)=O)NC(=O)c1ccc2ccccc2n1 ; strain: HXB2 ; mutations: PR-L90M ; method: p24 ; result: 0.0057 µM
CC(C)CN(C[C@@H](O)[C@H](Cc1ccccc1)NC(=O)O[C@H]1CCOC1)S(=O)(=O)c1ccc(N)cc1 ; strain: NL4-3 Laboratory clone ; method: cytopathic effect / MTT ; result: 0.023 µM
Cc1ccc(S(=O)(=O)N(CC(C)C)C[C@@H](O)[C@H](Cc2ccccc2)NC(=O)O[C@H]2CO[C@H]3OCC[C@H]32)cc1 ; strain: IIIB ; mutations: 8374-P47 GS-8374-resistant ; method: ATP ; result: 0.0135 µM
Nc1ncnc2c1ncn2[C@H]1CC[C@H](CO)O1 ; strain: IIIB ; method: cytopathic effect / MTT ; result: >100 µM
Cc1nc(C)c([C@H](OC(C)(C)C)C(=O)O)c(N2CCC(C)(C)CC2)c1-c1ccc2c(c1)CCN(C1=NOC3C=CC=CC13)C2 ; strain: NL4-3 ; method: luciferase ; result: 0.005 µM
Nc1nc(=O)n([C@@H]2CS[C@H](CO)O2)cc1F ; strain: Site-directed mutant ; mutations: RT-K65R ; method: cytopathic effect / XTT ; result: 8.5 µM
C[C@H](Cn1cnc2c(N)ncnc21)OCP(=O)(O)O ; strain: IIIB ; method: XTT / absorbance ; result: 5 µM
Nc1nc(N)c2ncn([C@@H]3CC[C@H](CO)S3)c2n1 ; strain: IIIB ; method: cytopathic effect / MTT ; result: >100 µM
Nc1nc(=O)n([C@@H]2CS[C@H](CO)O2)cc1F ; strain: LAI (K65R) Recombinant ; method: cytopathic effect / XTT ; result: 10 µM
CC(C)(C)NC(=O)[C@@H]1[C@@H]2CCCC[C@@H]2CN1C(=O)[C@@H](O)[C@H](Cc1ccccc1)NC(=O)[C@H](CC(N)=O)NC(=O)c1ccc2ccccc2c1 ; strain: RF ; method: p24 ; result: 0.047 µM
CCC(NP(=O)(CO[C@@H]1C=C(F)[C@H](n2cnc3c(N)ncnc32)O1)NC(CC)C(=O)OC(C)C)C(=O)OC(C)C ; strain: IIIB ; method: luminescence ; result: >2 µM
Cc1cn([C@H]2C[C@H](N=[N+]=[N-])[C@@H](CO)O2)c(=O)[nH]c1=O ; strain: G910-6 AZT-resistant ; method: cytopathic effect / XTT ; result: >1 µM
O=C(O)P(=O)(O)O ; strain: LAI viral clone (RT-Q161L) ; mutations: RT-Q161L ; method: cytopathic effect / MTT ; result: 295 µM
Nc1ccn([C@H]2CC[C@@H](CO)O2)c(=O)n1 ; strain: IIIB WT ; method: cytopathic effect / XTT / RT activity ; setting: 5 d ; result: 4.3 µM
Nc1ncnc2c1ncn2[C@@H]1CC[C@H](CO)S1 ; strain: IIIB ; method: cytopathic effect / MTT ; result: >100 µM
O=C(NC(=S)Nc1ccc(Br)cn1)c1ccccc1[N+](=O)[O-] ; strain: LAI ; method: MTT ; result: 0.55 µM
Nc1nc(Br)c2ncn([C@H]3CC[C@@H](CO)O3)c2n1 ; strain: IIIB ; method: cytopathic effect / trypan blue ; result: <20 µM
Nc1nc(N)c2ncn([C@H]3CO[C@@H](CO)O3)c2n1 ; strain: IIIB ; result: 0.2 µM
CNc1ccc(Cl)cc1S(=O)(=O)c1ccccc1[N+](=O)[O-] ; strain: IIIB ; method: XTT ; result: 1.1 µM
Cc1cn([C@H]2C[C@H](N=[N+]=[N-])[C@@H](CO)O2)c(=O)[nH]c1=O ; strain: LAI ; method: p24 / luciferase ; result: 0.23 µg/mL
CC(C)OC(=O)[C@H](C)NP(=O)(CO[C@H](C)Cn1cnc2c(N)ncnc21)Oc1ccccc1 ; strain: IIIB ; method: XTT / absorbance ; result: 0.01 µM
COc1cc2c(cc1OC)[C@H](c1cc(OC)c(OC)c(OC)c1)[C@@H](C)[C@@H](C)C2 ; strain: NL4-3 ; method: luminescence ; result: 0.771 µM
CC(C)(C)NC(=O)[C@@H]1C[C@@H]2CCCC[C@@H]2N1C(=O)[C@@H](O)[C@H](Cc1ccccc1)NC(=O)[C@H](CC(N)=O)NC(=O)COc1ccc2cc(Br)ccc2c1 ; strain: RF ; method: p24 ; result: 0.065 µM
O=c1[nH]cnc2c1ncn2[C@H]1CC[C@@H](CO)O1 ; strain: LAI ; method: cytopathic effect / MTT ; result: 15.4 µM
O=C(Nc1ncc[nH]1)c1cccc(CN2C(=O)N(Cc3ccccc3)[C@H](Cc3ccccc3)[C@H](O)[C@@H](O)[C@H]2Cc2ccccc2)c1 ; strain: RF ; result: <0.021 µM

Repeating the final 3 entries:

compound	strain	mutations	method	setting	result
CC(C)(C)NC(=O)[C@@H]1C[C@@H]2CCCC[C@@H]2N1C(=O)[C@@H](O)[C@H](Cc1ccccc1)NC(=O)[C@H](CC(N)=O)NC(=O)COc1ccc2cc(Br)ccc2c1	RF		p24		0.065 µM
O=c1[nH]cnc2c1ncn2[C@H]1CC[C@@H](CO)O1	LAI		cytopathic effect / MTT		15.4 µM
O=C(Nc1ncc[nH]1)c1cccc(CN2C(=O)N(Cc3ccccc3)[C@H](Cc3ccccc3)[C@H](O)[C@@H](O)[C@H]2Cc2ccccc2)c1	RF				<0.021 µM